Results deposited as PubChem BioAssay AID1259414 (Drosophila RNAi Screening Center, 2018)
The screen tested about 24,000 reagents; this is an unselected part of those that have a named target and a result. Of all reagents, about 1,210 (5%) were called active. 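Inactive calls also include excluded dsRNAs with several or no targets, genes unexpressed in JW18, and well A1, regardless of score.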 Reagents against one gene are numbered here.

- Aim: 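Host factors increasing or decreasing Wolbachia levels in cultured fly cells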 (primary screen)
- System: Drosophila JW18 cells infected with Wolbachia
- Reagent: long dsRNA against Drosophila genes, 0.25 µg dsRNA per well of a 384-well plate
- Duration: 5 days
- Conditions: cells persistently infected with Wolbachia before knock-down; no added drug
- Detection: 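Imaged fluorescence in situ signal for Wolbachia 23S rRNA per DAPI-counted host cell, given as a robust z-score within each plate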
- Scale: Wolbachia per cell robust z: higher = more Wolbachia per host cell than the plate typical
- Active means: 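Hit when robust z is 1.5 or more, or -1.5 or less, in at least two of three replicates; excludes dsRNAs with several or no targets, genes not expressed in JW18 and well A1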

target	reagent	Wolbachia per cell robust z, rep 1	Wolbachia per cell robust z, rep 2	Wolbachia per cell robust z, rep 3	Outcome
Nrd1	1	0.487	0.215	0.982	inactive
CG41099	1	1.18	2.39	0.204	inactive
osy	1	0.369	0.324	-0.29	inactive
osy	2	0.0146	0.186	0.56	inactive
osy	3	-0.775	-1.78	0.387	inactive
ato	1	-0.14	-1.06	-1.64	inactive
IscU	1	1.21	0.541	-5.36	inactive
Brca2	1	-1.77	0.764	1.65	inactive
Brca2	2	-0.367	0.402	1.07	inactive
CG5882	1	-3.31	0.607	1.39	inactive
ND-24	1	-1.17	0.0213	0.015	inactive
CG9150	1	-3.51	0.183	0.286	inactive
CG9150	2	-0.832	-1.11	-2.12	inactive

In a second layout: 3 of the entries above.
target,reagent,"Wolbachia per cell robust z, rep 1","Wolbachia per cell robust z, rep 2","Wolbachia per cell robust z, rep 3",Outcome
ato,1,-0.14,-1.06,-1.64,inactive
IscU,1,1.21,0.541,-5.36,inactive
Brca2,1,-1.77,0.764,1.65,inactive

Next reagents follow:
target	reagent	Wolbachia per cell robust z, rep 1	Wolbachia per cell robust z, rep 2	Wolbachia per cell robust z, rep 3	Outcome
CG17036	1	0.602	-0.519	0.914	inactive
CG17036	2	1.29	0.969	1.05	inactive
stau	1	-2.16	0.228	0.242	inactive
CG14762	1	-1.96	-1.33	-0.393	inactive
CG14762	2	-1.27	-0.058	0.386	inactive
polybromo	1	0.255	0.396	-0.309	inactive
CG15255	1	-1.06	0.0975	0.0723	inactive
CG15255	2	-3.71	0.762	-4.02	inactive
CG13116	1	-2.82	0.95	-1.88	inactive
CG13116	2	-2.18	-1.33	-0.533	inactive
CG13116	3	0.056	-0.291	-1.82	inactive
kek6	1	0.709	0.198	0.844	inactive
kek6	2	0.632	-0.137	-1.51	inactive
CG7149	1	0.648	1.09	-0.222	inactive
Blimp-1	1	-1.55	-0.945	-0.275	inactive
Blimp-1	2	-1.58	0.00388	0.3	inactive
